Reference: US6881741B2 (ViroChem Pharma Inc., priority 2001, dated 2005)
Only a part of the results on these compounds is given; other tests are left out.

The chains behind the UniProt entries cited, without tags or fusion partners. Residues count along the entry.
UniProt P26663, 2420-3010 limits assumed: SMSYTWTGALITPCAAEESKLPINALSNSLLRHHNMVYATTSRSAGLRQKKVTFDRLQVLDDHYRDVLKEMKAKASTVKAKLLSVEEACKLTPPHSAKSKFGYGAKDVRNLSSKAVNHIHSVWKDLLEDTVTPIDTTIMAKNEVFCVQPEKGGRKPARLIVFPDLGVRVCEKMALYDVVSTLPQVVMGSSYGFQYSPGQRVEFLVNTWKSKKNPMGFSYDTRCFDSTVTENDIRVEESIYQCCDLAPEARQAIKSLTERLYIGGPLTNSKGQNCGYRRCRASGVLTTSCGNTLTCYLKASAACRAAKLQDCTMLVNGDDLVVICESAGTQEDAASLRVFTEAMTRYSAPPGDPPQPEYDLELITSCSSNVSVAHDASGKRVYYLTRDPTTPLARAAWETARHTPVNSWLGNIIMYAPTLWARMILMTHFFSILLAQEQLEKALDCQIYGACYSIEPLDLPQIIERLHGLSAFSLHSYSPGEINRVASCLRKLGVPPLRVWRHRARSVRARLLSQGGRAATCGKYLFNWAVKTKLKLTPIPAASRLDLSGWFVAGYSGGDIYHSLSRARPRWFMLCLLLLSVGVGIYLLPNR

Target: recombinant HCV NS5B (HCV RNA-dependent RNA polymerase) (Hepatitis C virus genotype 1b, UniProt P26663)
Experiment: In vitro HCV RdRp Flashplate scintillation proximity assay (STREP-FLASH ASSAY)
Assay type: biochemical
Details: read-out: IC50 (polymerase activity), list of compounds of Example 27

| SMILES | IC50 [µM] |
| --- | --- |
| CN1CCC(N(C(=O)c2ccc(Cl)cc2Cl)c2cc(-c3ccccc3)sc2C(=O)O)CC1 | 5 to 20 |
| CC1CCC(C(=O)N(c2cc(-c3ccccc3)sc2C(=O)O)C2CCN(C)CC2)CC1 (centres unmarked) | < 5 |
